The text below walks through data of patent US10627412B2, “Periodontal-disease-specific peptide, and treatment and diagnosis of periodontal disease using same” (KAGOSHIMA UNIVERSITY, priority 2010, dated 2020).

The subject of the series is rat gingival epithelial cells (GEC). The series can be described thus: Mass spectrometry differential profiling of degradation products of gingival epithelial cells treated with purified gingipains. Conditions: 37° C. 1 hr, MALDI-TOF.

For “TIVEEVQDGKVISSREQVHQTTR (listed as Homo sapiens) [peptide 5]”, the “Peak intensity ratio relative to control (enzyme-free group)” value reads like this: (HRgpA treatment) 8.4; (RgpB treatment) 18.7.
